Values quoted from earlier work, collected in patent publication US9227852B2, “Apparatus, systems, and methods for water treatment” (McWong Environmental Technology, priority 2008, dated 2016).

Conditions: concentration at which the average person detects the odor; cited from earlier work

Question: For CC1(C)[C@@H]2CC[C@@]1(C)[C@](C)(O)C2 [2-methylisoborneol (MIB), 2-methylisoborneol], which Odor threshold is on record?
Answer: 9 ng/L

Question: Which Odor threshold does the source give for CC1CCCC2(C)CCCCC12O (centres unmarked) [Geosmin] here?
Answer: 4 ng/L
